Measured values: the supplement of paper PMC9931576
Human monoclonal antibodies against the spike receptor-binding domain (heavy:light variable regions). IC50 against pseudoviruses bearing the spike of naturally observed variants; lower = stronger; >10 µg/ml means not reached at the top dose. No active / inactive call. The stated detection limit is 0.0005 µg/ml; values near or below 0.001 µg/ml lie at the floor of the assay.

Columns and labels:
Experiment in all cases: pseudovirus neutralization IC50; higher = weaker neutralization
[1] = molecular target: SARS-CoV-2 Omicron BA.1 spike pseudovirus
Protocol: (§1)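 Single-round VSV luciferase pseudovirus mixed with antibody dilutions for 1 h and put on Huh-7 cells for about a day; IC50 from the dose curve.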

[2] = molecular target: SARS-CoV-2 Omicron BA.2 spike pseudovirus
Protocol: as §1

[3] = molecular target: SARS-CoV-2 Omicron BA.2.75 spike pseudovirus
Protocol: as §1

[4] = molecular target: SARS-CoV-2 Omicron BA.5 spike pseudovirus
Protocol: as §1

[5] = molecular target: SARS-CoV-2 Omicron BQ.1.1 spike pseudovirus
Protocol: as §1

[6] = molecular target: SARS-CoV-2 Omicron XBB spike pseudovirus
Protocol: as §1

[7] = molecular target: SARS-CoV-2 early D614G spike pseudovirus
Protocol: as §1

Measured: pseudovirus neutralization IC50

B1: BD55-6052 (protein)
chain 1: EVQLVQSGGGLVQPGGSLRLSCAASGFTFSNYAMHWVRQAPGKGPEYVSSITSDGSGTFYADSVKGRFTISRDNSKNTLFLQMGSLRAEDMAVYYCAREEVDGYNLGGFNYWGQGTPVIVSS
chain 2: DIQMTQSPSSLSASVGARVTITCRASQSISIYLNWYQQKPGKAPKLLIYGASSLQSGVPSRFSGSGSGTDFTLTISSLQPEDFATYYCQQSYTTPEYTFGQGTKLEIK
> 10 µg/mL: [1] | [2] | [3] | [4] | [5] | [6] | [7]

B2: BD55-6060 (protein)
chain 1: EVQLVESGGGLVQPGGSLRLSCAASGFTFSSYDMHWVRQATGKGLEWVSVIDTAGDTDYLGSVKGRFTISRENAKNSLYLQMNSLRAGDTAVYYCARGYPHYDILAGFHYYYYGMDVWGQGTTVTVSS
chain 2: QTVVTQEPSLTVSPGGTVTLTCASSTGTVTSGYYPNWFQQKPGQAPRALIYSTSNKHSWTPARFSGSLLGGKAALTLSGVQPEDEAEYYCLLYYGGAQLVFGGGTKLTVL
> 10 µg/mL: [1] | [2] | [3] | [4] | [5] | [6] | [7]

B3: BD55-6063 (protein)
chain 1: QVHLVQSGAAVRKPGSSVKVSCRASGGTFSSNAISWVRRAPGQGLEWMGRIIPIFGKVNYAQKFQGRVTITADESTGTAYMELSSLRSEDTAVYYCARAGVLGGAGSYYIADFWGQGTLVTVSS
chain 2: NFLLTQPHSVSESPGKTVAISCTRSSGSIDTDYVQWYQQRPDSAPTTVIFENDQRPSGVPVRFSGSFDISSNSASLTISGLKTEDEADYYCQSYDGVNQAWVFGGGTKLTVL
> 10 µg/mL: [1] | [2] | [3] | [4] | [5] | [6]
0.0701 µg/mL: [7]

B4: BD55-6066 (protein)
chain 1: EVQLVQSGAEVKKPGESLKISCKGSGYTFTNYWITWVRQMPGKGLEWMGMIDPSDSYSDYSPSFQGHVTISADKAISTAYLQWSNLKASDSAMYYCARHMQQLEPSDFWGPGTLVTVSS
chain 2: EIVLTQSPDFQSVTPKEKVTITCRASRSIGSSLHWYQQKPGQSPKLLIIYASQSFSGVPSRFSGSGSGTDFTLTINGLEAEDAATYYCHHSNSLLGLTFGGGTKVEIK
0.0309 µg/mL: [7]
> 10 µg/mL: [1] | [2] | [3] | [4] | [5] | [6]

B5: BD55-6068 (protein)
chain 1: EEQLLESGGGLVQPGGSLRLSCAASGFTFSNYAMSWVRQAPGKGLEWVSALSNTGGATYYADSVKGRFTVSRDDSKNTLYLQMNSLRAEDTAVYYCAKNWDSIGYTSGWQHLDWFDPWGQGTLVTVSS
chain 2: DIQMTQSPSSLSASVGDRVTITCRASQSIGSYLNWYQQKPGKAPKLLINVASSLQSGVPSRFSGSGSGTDFTLTINSLQPEDFATYYCQQSYTSPSITFGQGTRLEIK
> 10 µg/mL: [1] | [2] | [3] | [4] | [5] | [6]
0.0315 µg/mL: [7]

B6: BD55-6071 (protein)
chain 1: EVQLVESGGGLVQPGRSLRLSCTTSGFSFGDYALSWFRQAPGKGPEWIGFIRSKTDGGTTEYAASLRGRFTISRDDSKSVAYLQLNSLKTEDTAVYYCTREGKFSYYYYYAMDVWGQGTTVTVSS
chain 2: DIQMTQSPSSLSASVGDRVTITCRTSQSISYYLNWYQQKPGKAPKLLIYAASSLQSGVPSRFSGSGSGTDFTLTISSLQPEDFATYYCQQSYSISLTFGGGTNVEIK
> 10 µg/mL: [1] | [2] | [3] | [4] | [5] | [6] | [7]

B7: BD55-6075 (protein)
chain 1: EVHLVESGGGLIQPGRSLRLSCAASGFTFGDYAMHWVRQPPGKALEWVSSISSDGRITDHADSVKGRFTISRDNAKSSLSLQMNSLRTEDTAFYYCVKDTDVARSLTTLFEFWGQGTLVTVSS
chain 2: DIQMTQSPSALSASVGDRVTITCRASQTISRNLNWYQQRPGKAPRLLIYEASHLQSGVPSRFSGSGSGTDFSLTISSLQPEDFATYYCQQSYVTPQVTFGPGTKVDV
1.01 µg/mL: [7]
> 10 µg/mL: [1] | [2] | [3] | [4] | [5] | [6]

B8: BD55-6086 (protein)
chain 1: QVQLVESGGGVVQPGRSLKLSCAASGFPFSTYAMHWVRQAPGKGLEWVAVISFDSNDEYYADSVKGRFTISRDNSKNTLYLQMNTLRAEDTALYYCARAGVLRYFDWLLSSGFAFWGQGTLVTVSS
chain 2: DIQMTQSPSFLSASVGDRVTITCQASQDIRNYLNWYQQKPGKAPKLLIADASSLEAGVPSRFSGSGSGTHFIISISSLQPEDIATYYCQQYYNLPSFGQGTKLEIK
> 10 µg/mL: [1] | [2] | [3] | [4] | [5] | [6]
0.1 µg/mL: [7]

B9: BD55-6096 (protein)
chain 1: EVQLVESGGGLVRPGRSLRLSCTASGFSFGDYALSWVRQAPGKGLEWVGFIRSRAFGGTTEYAASVKGRFTISRDDSKNIAHLQMNSLKIEDTALYFCTREFFTGTDLGFYYYMDVWGKGTTVTVSS
chain 2: DIQLTQSPSTLSASVGDRVTITCRASQSVNTWLAWYQEKPGKAPKVLIYKASTLETGVPSRFSGSGFGTEFTLTISSLQPDDFATYYCQQYNGFLYTFGQGTKLEIK
> 10 µg/mL: [1] | [2] | [3] | [4] | [5] | [6] | [7]

B10: BD55-6130 (protein)
chain 1: QVQLQESGPRLVKPSETLSLTCTVSGDSISNYYWSWIRQSPGKGLEWIGYISSTGSTDYTPSLQSRVTMSIDTSKNQFSLKLRSVTAADRAVYYCARDKCSSTSCWGGYYFDSWGQGTLVTVSS
chain 2: DIQMTQSPSSLSASVGDRVTITCRASQSISSYLHWYQQSPGKAPKLLVYAASSLQSGVPSRFSGSGSGTDFTLTISGLQPEDFATYYCQQSYSTPRTFGQGTKVEIK
> 10 µg/mL: [1] | [2] | [3] | [4] | [5] | [6] | [7]

B11: BD55-6158 (protein)
chain 1: QVQLVQSGAEVRKPGASVKVSCKASGYTFTTYDINWVRQATGQGLEWMGWMNPNSGNTGYAHSFQSRVTMTRNTSISTAYMELSSLRGEDTAVYYCAIDAGGNKGYYYYYAMDVWGQGTTVTVSS
chain 2: DIQMTQSPSSLSASVGDRVTINCRASQSISTYLNWYQQKLGKAPNLLIYDASSLQTGVPSRFSGSGSGTDFTLTISSLQPEDFATYYCQQSYSSPPTFGQGTKVEIK
> 10 µg/mL: [1] | [2] | [3] | [4] | [5] | [6] | [7]

B12: BD55-1177 (protein)
chain 1: VELVQSGAEVKKPGSSVKVSCKTSGDTFSRYAITWVRQVSGQGLEWMGRIIPLFDKGNYAQKFQGTVTFTADKSTGTAYMELSSLRSEDTAVYYCATSGFYSDGGGHYSEYWGQGTQVTVSS
chain 2: EIVLTQSPGTLSLSPGERATLSCRASQSVGGSFLAWYQQKPGQAPSLLIYGASTRATGIPDRFSGSGSGTDFSLSISRLEPEDFAVYYCQQYASAPRTFGQGTKVEI
0.001 µg/mL: [7]
4.78 µg/mL: [5]
0.00282 µg/mL: [1]
0.00141 µg/mL: [3]
0.00188 µg/mL: [2]
> 10 µg/mL: [6]
0.737 µg/mL: [4]
